Results of unrelated studies side by side (data: NIAID ChemDB).

Shared fields: growth or infection tests; organism: Hepatitis C virus; cells: Huh7; endpoint: inhibition

Conditions beyond the fields shown may differ between rows. Inhibition is in % at the dose shown (toxicity tests: loss of growth or viability).

{"structure": "CCn1cc(CNC(=O)[C@]23CCC(C)(C)CC2C2=CCC4[C@@]5(C)CC[C@H](O)C(C)(C)C5CC[C@@]4(C)[C@]2(C)C[C@H]3O)nn1", "read by": "luciferase / entry", "dose": "1 µM", "value": "0.5%"}
{"structure": "COc1cc(Cc2cnc(/N=C3\\C(=O)N(CN4CCN(Cc5ccccc5)CC4)c4ccc(Br)cc43)nc2N)cc(OC)c1OC", "read by": "replicon", "dose": "50 µg/mL", "value": "26%"}
{"structure": "CC1(C)CC[C@@]2(C(=O)NCc3cn(Cc4cccc(Cn5cc(CNC(=O)[C@]67CCC(C)(C)CC6C6=CCC8[C@@]9(C)CC[C@H](O)C(C)(C)C9CC[C@@]8(C)[C@]6(C)C[C@H]7O)nn5)c4)nn3)C(C1)C1=CCC3[C@@]4(C)CC[C@H](O)C(C)(C)C4CC[C@@]3(C)[C@]1(C)C[C@H]2O", "read by": "luciferase / entry", "dose": "1 µM", "value": "59.2%"}
{"structure": "CN(C)CCCn1cnc2c(=O)oc3ccccc3c21", "strain": "GT1b", "read by": "luciferase / reporter gene", "dose": "50 µM", "value": "59%"}
{"structure": "COc1cc(Cc2cnc(/N=C3\\C(=O)N(CN4CCN(c5ccc6c(c5F)c(=O)c(C(=O)O)cn6C5CC5)CC4)c4ccc(C)cc43)nc2N)cc(OC)c1OC", "dose": "50 µg/mL", "value": "97%"}
{"structure": "Cc1ccc2nc(Nc3cccc(Cl)c3)sc2c1", "read by": "luciferase", "dose": "20 µM", "value": "31%"}
{"structure": "CC1(C)CC[C@@]2(C(=O)NCc3cn(CC(Cn4cc(CNC(=O)[C@]56CCC(C)(C)CC5C5=CCC7[C@@]8(C)CC[C@H](O)C(C)(C)C8CC[C@@]7(C)[C@]5(C)C[C@H]6O)nn4)n4cc(CNC(=O)[C@]56CCC(C)(C)CC5C5=CCC7[C@@]8(C)CC[C@H](O)C(C)(C)C8CC[C@@]7(C)[C@]5(C)C[C@H]6O)nn4)nn3)C(C1)C1=CCC3[C@@]4(C)CC[C@H](O)C(C)(C)C4CC[C@@]3(C)[C@]1(C)C[C@H]2O", "read by": "luciferase / entry", "dose": "5 µM", "value": "32.2%"}
{"structure": "Cc1n[nH]c(=O)c2cc3c(C)n[nH]c(=O)c3cc12", "strain": "GT1b", "read by": "luciferase / reporter gene", "dose": "50 µM", "value": "0%"}
{"structure": "COc1cc(Cc2cnc(/N=C3\\C(=O)N(CN4CCN(c5cc6c(cc5F)c(=O)c(C(=O)O)cn6C5CC5)CC4)c4ccc(F)cc43)nc2N)cc(OC)c1OC", "dose": "50 µg/mL", "value": "100%"}
{"structure": "COc1cc(Cc2cnc(/N=C3\\C(=O)N(CN4CCCC4)c4ccc(Br)cc43)nc2N)cc(OC)c1OC", "read by": "replicon", "dose": "50 µg/mL", "value": "0%"}
{"structure": "CNc1ncnc2c1ncn2[C@@H]1C2C[C@@]2(CO)C(O)C1(O)CO", "read by": "replicon", "dose": "100 µM", "value": "0%"}
{"structure": "O=C(Nc1cccc(-c2ccco2)c1)C1CCN(C(=O)c2ccoc2)CC1", "strain": "JFH-1", "read by": "PCR", "dose": "15 µM", "value": "<40%"}
{"structure": "COc1cc(Cc2cnc(/N=C3\\C(=O)N(CN4CCN(c5c(F)cc6c(=O)c(C(=O)O)cn(C7CC7)c6c5OC)CC4C)c4ccc(F)cc43)nc2N)cc(OC)c1OC", "dose": "50 µg/mL", "value": "92%"}
{"structure": "O=C1NC(=Nc2nnc(-c3cccnc3)s2)SC1=Cc1c(Cl)cccc1Cl", "strain": "GT1b", "read by": "luciferase", "dose": "50 µM", "value": "92%"}
{"structure": "COc1ccccc1/C=C/CN1CCC(C(=O)Nc2ccc(-n3nc(C)cc3C)cc2)CC1", "strain": "JFH-1", "read by": "PCR", "dose": "15 µM", "value": "≥40%"}
{"structure": "Nc1nc2c(ncn2[C@@H]2O[C@H](CO)[C@@H](O)[C@@H]2F)c(=O)[nH]1", "read by": "replicon", "dose": "20 µM", "value": "62%"}
{"structure": "CC1(C)CC[C@@]2(C(=O)NCc3cn(CCCO)nn3)C(C1)C1=CCC3[C@@]4(C)CC[C@H](O)C(C)(C)C4CC[C@@]3(C)[C@]1(C)C[C@H]2O", "read by": "luciferase / entry", "dose": "1 µM", "value": "35.7%"}
{"structure": "CCN1CCC(CN2CCC(C(=O)Nc3ccc(Oc4ccccc4F)cc3)CC2)CC1", "strain": "JFH-1", "read by": "PCR", "dose": "5 µM", "value": "≥70%"}
{"structure": "COc1cc(Cc2cnc(/N=C3\\C(=O)N(CN4CCN(c5cccc(Cl)c5)CC4)c4ccc(F)cc43)nc2N)cc(OC)c1OC", "dose": "50 µg/mL", "value": "92%"}
{"structure": "COc1cccc(O)c1CN1CCC(C(=O)Nc2ccc(Oc3ccccc3F)cc2)CC1", "strain": "JFH-1", "read by": "PCR", "dose": "5 µM", "value": "≥40%"}
{"structure": "COc1cc(Cc2cnc(/N=C3\\C(=O)N(CN4CCN(c5c(F)cc6c(=O)c(C(=O)O)cn(C7CC7)c6c5OC)CC4C)c4ccc(Br)cc43)nc2N)cc(OC)c1OC", "read by": "replicon", "dose": "50 µg/mL", "value": "20%"}
{"structure": "Cc1c(C(=O)NN2CCCCC2)nn(-c2ccc(Cl)cc2Cl)c1-c1ccc(I)cc1", "strain": "JFH-1", "read by": "PCR", "dose": "10 µM", "value": "70%"}
{"structure": "COc1cc(Cc2cnc(/N=C3\\C(=O)N(CN4CCN(c5cccc(C(F)(F)F)c5)CC4)c4ccc(Br)cc43)nc2N)cc(OC)c1OC", "read by": "replicon", "dose": "50 µg/mL", "value": "2%"}
{"structure": "C[C@@H]1[C@H](n2ccc(N)nc2=O)O[C@@](CO)(N=[N+]=[N-])[C@H]1O", "read by": "replicon / PCR", "dose": "7.85 µM", "value": "90%"}
{"structure": "COc1cccc(N2CCN(CN3C(=O)/C(=N\\c4ncc(Cc5cc(OC)c(OC)c(OC)c5)c(N)n4)c4cc(C)ccc43)CC2)c1", "dose": "50 µg/mL", "value": "100%"}
{"structure": "COc1nc(N)nc2c1ncn2[C@@H]1O[C@H](COP(=O)(N[C@@H](C)C(=O)OCC(C)(C)C)Oc2cccc3ccccc23)[C@@H](O)[C@@]1(C)O", "strain": "1a", "read by": "PCR", "conditions": "24 h", "dose": "0.042 µM", "value": "90%"}
{"structure": "Nc1ncnc2c1ncn2[C@@H]1C2C[C@@]2(CO)C(O)C1(O)CO", "read by": "replicon", "dose": "100 µM", "value": "0%"}
{"structure": "O=C1CSC(=Nc2nnc(-c3ccccc3Cl)s2)N1", "strain": "GT1b", "read by": "luciferase", "dose": "50 µM", "value": "0%"}
{"structure": "O=C(Nc1cccc(-c2ccco2)c1)C1CCN(C(=O)CCc2ccco2)CC1", "strain": "JFH-1", "read by": "PCR", "dose": "15 µM", "value": "<40%"}
{"structure": "COc1cc(Cc2cnc(/N=C3\\C(=O)N(CN(C)C)c4ccc(F)cc43)nc2N)cc(OC)c1OC", "dose": "50 µg/mL", "value": "100%"}
{"structure": "Cc1cc(C)cc(Nc2nc3ccc(C)cc3s2)c1", "read by": "luciferase", "dose": "5 µM", "value": "45%"}
{"structure": "CC(=O)c1ccc(NC(=O)C2=c3nc(C)[nH]c(=O)c3=NC2)cc1", "strain": "GT1b", "read by": "luciferase / reporter gene", "dose": "50 µM", "value": "0%"}
{"structure": "COc1cc(Cc2cnc(/N=C3\\C(=O)N(CN4CCN(c5ccccn5)CC4)c4ccc(Br)cc43)nc2N)cc(OC)c1OC", "read by": "replicon", "dose": "50 µg/mL", "value": "16%"}
{"structure": "COc1cc(Cc2cnc(/N=C3\\C(=O)N(CN4CCN(c5ccc([N+](=O)[O-])cc5)CC4)c4ccc(C)cc43)nc2N)cc(OC)c1OC", "dose": "50 µg/mL", "value": "93%"}
{"structure": "Cc1ccc2nc(Nc3cc(O)cc([N+](=O)[O-])c3)sc2c1", "read by": "luciferase", "dose": "20 µM", "value": "66%"}
{"structure": "[N-]=[N+]=NCC1(O)C(O)[C@]2(CO)CC2[C@H]1n1cnc2c(N)ncnc21", "read by": "replicon", "dose": "100 µM", "value": "0%"}
{"structure": "COc1cc(Cc2cnc(/N=C3\\C(=O)N(CN4CCCCC4)c4ccc(C)cc43)nc2N)cc(OC)c1OC", "dose": "50 µg/mL", "value": "99%"}
{"structure": "CC(C)(C)NC(=O)N[C@H](C(=O)N1C[C@H]2[C@@H]([C@H]1C(=O)NC(CC1CCC1)C(=O)C(N)=O)C2(C)C)C(C)(C)C", "strain": "1b", "dose": "2.3 µM", "value": "90%"}
{"structure": "O=C1NC(=Nc2nnc(-c3cccc(F)c3)s2)SC1=Cc1cccc(F)c1", "strain": "GT1b", "read by": "luciferase", "dose": "50 µM", "value": "79%"}
{"structure": "O=C(Nc1cccc(-c2ccn[nH]2)c1)C1CCN(Cc2cccc3ccccc23)CC1", "strain": "JFH-1", "read by": "PCR", "dose": "15 µM", "value": "<40%"}
{"structure": "C=C(C)[C@@H]1CC[C@]2(C(=O)O)CC[C@]3(C)[C@H](CC[C@@H]4[C@@]5(C)CC[C@H](O)C(C)(C)[C@@H]5CC[C@]43C)[C@@H]12", "read by": "luciferase / entry", "conditions": "pseudotyped", "dose": "5 µM", "value": "1.9%"}
{"structure": "Nc1nc2c(cnn2[C@H](C=O)O[C@@H](C=O)CO)c(=O)[nH]1", "strain": "GT1b", "read by": "luciferase / reporter gene", "dose": "50 µM", "value": "0%"}
{"structure": "CCc1nc(CN2CCC(C(=O)Nc3cccc(-c4cccc(F)c4)c3)CC2)c(C)[nH]1", "strain": "JFH-1", "read by": "PCR", "dose": "15 µM", "value": "≥40%"}
{"structure": "O=C1NC(=Nc2nnc(-c3ccccc3F)s2)SC1=Cc1c(Cl)cccc1Cl", "strain": "GT1b", "read by": "luciferase", "dose": "50 µM", "value": "97%"}
{"structure": "CC1(C)CC[C@]2(C(=O)O)[C@H](O)C[C@]3(C)C(=CC[C@@H]4[C@@]5(C)CC[C@H](O)C(C)(C)[C@@H]5CC[C@]43C)[C@@H]2C1", "read by": "luciferase / entry", "dose": "1 µM", "value": "27.5%"}
{"structure": "C[C@H]1[C@H](C)CC[C@]2(C(=O)O)CC[C@]3(C)C(=CC[C@@H]4[C@@]5(C)CC[C@H](O)C(C)(C)[C@@H]5CC[C@]43C)[C@H]12", "read by": "luciferase / entry", "conditions": "pseudotyped", "dose": "5 µM", "value": "3.9%"}
{"structure": "O=C1CSC(=Nc2nnc(-c3cccnc3)s2)N1", "strain": "GT1b", "read by": "luciferase", "dose": "50 µM", "value": "0%"}

4 of the rows above, restated:

{"structure": "CCn1cc(CNC(=O)[C@]23CCC(C)(C)CC2C2=CCC4[C@@]5(C)CC[C@H](O)C(C)(C)C5CC[C@@]4(C)[C@]2(C)C[C@H]3O)nn1", "read by": "luciferase / entry", "dose": "1 µM", "value": "0.5%"}
{"structure": "COc1cc(Cc2cnc(/N=C3\\C(=O)N(CN4CCN(c5cc6c(cc5F)c(=O)c(C(=O)O)cn6C5CC5)CC4)c4ccc(F)cc43)nc2N)cc(OC)c1OC", "dose": "50 µg/mL", "value": "100%"}
{"structure": "CC(C)(C)NC(=O)N[C@H](C(=O)N1C[C@H]2[C@@H]([C@H]1C(=O)NC(CC1CCC1)C(=O)C(N)=O)C2(C)C)C(C)(C)C", "strain": "1b", "dose": "2.3 µM", "value": "90%"}
{"structure": "CNc1ncnc2c1ncn2[C@@H]1C2C[C@@]2(CO)C(O)C1(O)CO", "read by": "replicon", "dose": "100 µM", "value": "0%"}